For test [1], the target named is T1, V. cholerae ToxS periplasmic domain tagged with an N-terminal chitin binding domain (V. cholerae, UniProt P24003 26-173).
T1 construct: also called CBD-ToxSp
T1 sequence: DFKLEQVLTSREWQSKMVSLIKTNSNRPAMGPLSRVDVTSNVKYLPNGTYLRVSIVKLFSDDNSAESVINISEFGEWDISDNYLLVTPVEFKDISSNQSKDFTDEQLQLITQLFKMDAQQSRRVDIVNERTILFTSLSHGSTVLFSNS
Description: pull-down. The settings on record: both partners purified.

For test [2], the target named is T1, V. cholerae ToxS periplasmic domain …. The settings on record: both partners purified.

Like-named read-outs stand apart in the source and are kept apart here.

B1: V. cholerae non-disulfide bonded ToxR periplasmic domain (domain or fragment)
chain: TNPSQTSFKPLTVVDGVAVNMPNNHPDLSNWLPSIELCVKKYNEKHTGGLKPIEVIATGGQNNQLTLNYIHSPEVSGENITLRIVANPNDAIKVCE
modifications: no disulfide bond (free cysteines)
notes: also called Vc-ToxRp
Consider B1, for which, in test [1], the “amount pulled down (2 mM CDC) relative to Vc-dbToxRp with CDC” value stood at 0.41 relative level and the “fold change of the amount pulled down, 2 mM CDC against buffer” value came out at 4 fold.

B2: V. cholerae disulfide ToxR periplasmic domain (domain or fragment)
chain: TNPSQTSFKPLTVVDGVAVNMPNNHPDLSNWLPSIELCVKKYNEKHTGGLKPIEVIATGGQNNQLTLNYIHSPEVSGENITLRIVANPNDAIKVCE
modifications: intra-chain disulfide bond (cysteines C236 and C293)
Take B2: in test [2], the “fold change of the amount pulled down, 2 mM CDC against buffer” value was found to be 1.6 fold.

These data come from PMC7265457, “A disulfide constrains the ToxR periplasmic domain structure, altering its interactions with ToxS and bile-salts” (Scientific Reports, 2020).
